One assay concerns LNCaP. Briefly: MTT cell survival assay, prostate cancer cells LNCaP (NCI screening model). Conditions: 48 hours incubation. (In general: Formazan colour is commonly taken as a measure of viable cells.)
Another assay has as its system Hep 3B. The assay is described as follows: MTT cell survival assay, hepatic cancer cells Hep 3B (NCI anti-cancer agents screen model). Conditions: Hep3B, 48 hours incubation.
A further assay concerns DU-145. The assay is described as follows: MTT cell survival assay, prostate cancer cells DU-145 (NCI screening model). It is filed as cell-based, human. Conditions: for IC50: DU-145, 48 hours incubation, MTT; for Cell survival rate: 48 hours.
The next assay deals with A549. Briefly: MTT cell survival assay, lung cancer cell A549 (NCI anti-cancer agents screen model). Conditions: A549, 48 hours incubation.
Another assay relates to Hep G2. Briefly: MTT cell survival assay, hepatic cancer cells Hep G2 (NCI anti-cancer agents screen model). Conditions: HepG2, 48 hours incubation.
The mark [1] stands for this setting: DU-145, concentration 0.001 ng/ml.
Setting [2] is: DU-145, concentration 0.01 ng/ml.
Setting [3] is: DU-145, concentration 0.1 ng/ml.
The mark [4] stands for this setting: DU-145, concentration 100 ng/ml.

What is called IC50 is the point on the concentration scale where inhibition reaches its midpoint. Read a high IC50 as weaker potency.

Take verrucarin A: the IC50 with LNCaP stood at 2.85 ng/mL; in the assay on Hep 3B, 2.31 ng/mL; in the assay on DU-145, 0.02 ng/mL; in the assay on A549, 1.12 ng/mL; in the assay with Hep G2, 10.21 ng/mL. The Cell survival rate with DU-145 (setting [1]) is 94.33%; in the assay with DU-145 (setting [2]), 72.31%; in the assay on DU-145 (setting [3]), 21.01%; with DU-145 (DU-145, concentration 1 ng/ml), 16.99%; in the assay on DU-145 (setting [4]), 16.96%.

Regarding verrucarin J, the IC50 with LNCaP amounted to 0.31 ng/mL; in the assay with Hep 3B, 3.12 ng/mL; in the assay on DU-145, 0.28 ng/mL; in the assay on A549 it was 2.34 ng/mL; with Hep G2 it was 13.31 ng/mL. Further, the Cell survival rate with DU-145 (setting [1]) amounted to 100.21%; in the assay on DU-145 (setting [2]), 101.30%; with DU-145 (setting [3]), 81.11%; in the assay with DU-145 (DU-145, concentration 1 ng/ml) it was 19.93%; in the assay with DU-145 (setting [4]), 20.36%.
